Measurements taken from US20040063624A1, “Method of inhibiting the transition of free HIV virus through the cllular mucosal barrier” (priority 1999, published 2004).

Target: T1, HIV-1 gp120 (Human immunodeficiency virus type 1 group M subtype B, UniProt P04578)
T1 construct: The purified HIV-1 gp120 was adsorbed onto a polystyrrol surface; made in house; host or cells: HIV-1 strain IIIB infected human H9 cells (virus-derived, not recombinant)
Details: immobilized gp120, coincubation overnight at 37° C.; four-parameter logistic spline interpolation; read-out: IC50 of binding of biotinylated mannan to gp120

Substance: mannan
- IC50: 240 nM
